Several values for one entry are separate records, joined by “and”; a condition that tells them apart may be missing. Equal values may be shown once. Read-outs that look alike come from different tables or passages of the source.
Test system: HIV-1/LAI
Type: cell-based
[1] = HIV-1 infected PBM cells, reverse transcriptase region

Row | Compound | mutation selected / induced in HIV-1 | Week (mixed mutation first observed on passage) (human PBM cells) [Week] | mutation selected / induced in HIV-1 [1] | Week (full mutation first observed on passage) (human PBM cells) [Week] | Week (full mutation first observed on passage) (virus cultured in CEM cells)
1 | Nc1nc(=O)n([C@H]2CS[C@@H](CO)O2)cc1F (racemic) [(−) and racemic FTC, 2′,3′-dideoxy-3′-thia-5-fluorocytidine] | VI 84 |  |  |  | 
2 | Cc1c(O)cccc1C(=O)N[C@@H](CSc1ccccc1)[C@H](O)CN1C[C@H]2CCCC[C@H]2C[C@H]1C(=O)NC(C)(C)C (relative stereo) [Nelfinavir, [3S-[2(2S*,3S*),3-alpha,4-a-beta,8a-beta-]]-N-(1,1-dimethylethyl)decahydro-2-)2-hydroxy-3-[(3-hydroxy-2-methylbenzoyl)amino]-4-(phenylthio)butyl]-3-isoquinolincarboxamide mono-methanesulfonate] |  | 5 |  |  | 
3 | [N-]=[N+]=N[C@H]1C[C@H](n2ccc(=O)[nH]c2=O)O[C@@H]1CO [CS-87, 3′-Azido-2′,3′-dideoxyuridine] |  | 8 | transient mutation in HIV-1 at the 70th codon (K to R; i.e., lysine to arginine) |  | 
4 | Cc1cn([C@H]2C[C@H](N=[N+]=[N-])[C@@H](CO)O2)c(=O)nc1N [CS-092, 3′-azido-2′,3′-deoxy-5-methylcytidine] |  | 6 |  | 18 | 
5 | Nc1nc(=O)n([C@H]2C=C[C@@H](CO)O2)cc1F [L-D4FC, 2′,3′-didehydro-2′,3′-dideoxy-5-fluorocytidine] |  |  |  |  | 11 Week and 17 Week
6 | Nc1nc(=O)n([C@H]2CC[C@@H](CO)O2)cc1F [L-FddC, β-L-5-fluoro-2′,3′-dideoxycytidine] |  | 5 | VI 84 | 8 | 
7 | CC(C)CN(C[C@@H](O)[C@H](Cc1ccccc1)NC(=O)O[C@H]1CCOC1)S(=O)(=O)c1ccc(N)cc1 [VX-478, (S)-tetrahydrofuran-3-yl-N-[(1S,2R)-3-[N-[(4-aminophenyl)sulfonyl]-N-isobutylamino]-1-benzyl-2-hydroxypropyl]carbamate] |  | 8 |  | 10 | 
8 | (−)-α-2′,3′-dideoxy-3′-thia -5-fluorocytidine [(−)-FTC] |  | 2 |  | 3 | 

— patent publication US6602664B2 (priority 1998, dated 2003)
